This test has as its target Sterol 14-alpha demethylase (Trypanosoma cruzi (strain CL Brener), UniProt Q7Z1V1). As to the kind of experiment: GSK_TCAKS: pIC50 CYP51 from Trypanosoma cruzi. In kind it is functional.

By UniProt entry, the sequences of proteins in these tests, tags left out.
UniProt Q7Z1V1, whole entry: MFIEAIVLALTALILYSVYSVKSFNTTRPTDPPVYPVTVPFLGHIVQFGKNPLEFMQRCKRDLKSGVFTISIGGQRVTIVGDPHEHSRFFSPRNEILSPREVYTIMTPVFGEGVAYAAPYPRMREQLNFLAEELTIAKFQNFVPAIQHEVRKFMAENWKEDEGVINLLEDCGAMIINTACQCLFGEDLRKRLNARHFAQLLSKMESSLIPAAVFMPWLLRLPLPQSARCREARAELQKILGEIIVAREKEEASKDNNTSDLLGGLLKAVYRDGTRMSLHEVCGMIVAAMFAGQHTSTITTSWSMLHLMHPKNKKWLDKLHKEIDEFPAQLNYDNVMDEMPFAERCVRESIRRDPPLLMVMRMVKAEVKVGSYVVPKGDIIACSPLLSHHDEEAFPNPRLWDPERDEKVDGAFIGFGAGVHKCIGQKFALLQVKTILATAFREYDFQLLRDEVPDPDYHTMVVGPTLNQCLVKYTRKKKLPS

Each structure is given as a SMILES string. Some compounds may have been tested in ways that are not shown here.

Broadly, the pIC50 is the IC50 on a negative log10 scale, so that one unit is a factor of ten. A higher pIC50 goes with a small IC50. As to `CC(C)(C)c1ccc(NC2(C(N)=O)CCN(Cc3ccccc3)CC2)cc1`, the pIC50 turned out to be 5.3.

For the origin of these results see ChEMBL document CHEMBL3430912, “GSK Tres Cantos Anti-Kinetoplastid Screening (TCAKS) Data”.
